The target in the assay is GPNMB on the surface of glioma cells (D392 MG, D54 MG) (human) (UniProt Q14956). Briefly: cell-based or functional assay.

Consider five substances from patent US20090252750A1.

For “B305-PE38 immunotoxin (from UniProt P11439 278-389; P11439 406-638)”, the IC50, cytotoxicity assay of antibody-PE38 on D392 MG cells is 0.006 µg/mL. The same measure for “B308-PE38 immunotoxin (from UniProt P11439 278-389; P11439 406-638)”: 0.006 µg/mL; for “L04-PE38 immunotoxin (from UniProt P11439 278-389; P11439 406-638)”: 0.015 µg/mL; for “L12-PE38 immunotoxin (from UniProt P11439 278-389; P11439 406-638)”: 0.02 µg/mL. The same measure for “L15-PE38 immunotoxin (from UniProt P11439 278-389; P11439 406-638)”: 0.03 µg/mL.
